Pooled drug test results. Numbers come from NIAID ChemDB, via PubChem.

Common to all: growth or infection tests; organism: Herpes simplex virus 1; method: cytopathic effect; read-out: EC50

Blank or dashed fields: not listed here. Rows are shuffled and stem from different studies. a–b is a range or a potency band. ECn: concentration that inhibits the pathogen or its effect by n%.

smiles,strain or isolate,cells,value
Cc1cn([C@@H]2S[C@H](CO)[C@@H](O)[C@@H]2F)c(=O)[nH]c1=O,VR,,0.32 µg/mL
O=C(CC1CCCCC1)N(O)c1ccc(Cl)cc1,KOS,E6SM,80 µg/mL
C=C[C@@H](O)C1=C[C@@H](n2cnc3c(N)ncnc32)[C@H](O)[C@@H]1O,KOS,E6SM,>200 µg/mL
Nc1nc2c(ncn2[C@@H]2S[C@H](CO)[C@@H](O)[C@@H]2F)c(=O)[nH]1,VR,,0.0041 µg/mL
CCc1cn([C@H]2C[C@H](O)[C@@H](COP(=O)(O)O)O2)c(=O)[nH]c1=O,B2006 (TK-),PRK,>820 µg/mL
Nc1ncnc2c1ncn2[C@@H]1C[C@H](CO)C2CC21,,VERO,0.1–1 µg/mL
COc1ccc(-c2[nH]c3nc4c(ncn4COCCO)c(=O)n3c2C)cc1,TK-,HEL,>16 µg/mL
O=c1c2ncn(COC(CO)CO)c2nc2[nH]c(-c3ccccc3)cn12,F,,0.005 µg/mL
Nc1ncc2c(ncn2COC(CO)CO)n1,K1R,VERO,2.2 µM
O=c1[nH]cnc2c1ncn2OCCOCP(=O)(O)O,SC16,MRC-5,>340 µg/mL
N#Cc1cn(C2O[C@H](CO)[C@@H](O)[C@H]2O)c(=O)[nH]c1=O,,Primary rabbit kidney cells,370 µM
C=C[C@H](O)C1=C[C@@H](n2cnc3c(N)ncnc32)[C@H](O)[C@@H]1O,B2006 (TK-),E6SM,>100 µg/mL
NC(=O)CSc1ncnc2c1cnn2COCC(O)CO,KOS,E6SM,>400 µg/mL
NC1=NC2C(C=CN2CC(CO)CCO)C(=O)N1,KOS,VERO,5.3 µg/mL
OC/C(=C/Cn1cnc2c(Cl)ncnc21)c1ccccc1,,CCL18,>100 µg/mL
Nc1ccn([C@@H]2O[C@H](CO)[C@@H](O)[C@@H]2O)c(=O)n1,KOS,HEP-2,0.2 µg/mL
Nc1ncnc2c1c(Br)cn2COCCO,,HEF,3 µM
OC[C@H]1O[C@@H](c2cc(C#CBr)c(F)cc2F)C[C@@H]1O,McIntyre,E6SM,9.6 µg/mL
O=c1c2ncn(COC(CO)CO)c2nc2[nH]c(-c3ccc(F)cc3)cn12,TK-,HEL,>80 µg/mL
CCCOc1nc(N)nc2c1ncn2[C@@H]1C[C@H](CO)C2CC21,,VERO,1–10 µg/mL
Nc1nc(=O)n(C2CC(O)C(CO)O2)cc1CCCl,KOS,PRK,0.6 µg/mL
COC(=O)[C@H]1NC(=O)[C@H]2NC(=O)[C@H](NC(=O)[C@@H]3NC(=O)[C@H]4NC(=O)[C@H](NC(=O)[C@H](N)c5ccc(O)c(c5)Oc5cc4cc(O)c5C)[C@H](O)c4ccc(cc4)Oc4cc3cc(c4O)Oc3ccc(cc3)[C@H]2O[C@@H]2C[C@@H](N)[C@@H](O)[C@H](C)O2)c2ccc(O)c(c2)-c2c(O)cc(O)cc21,KOS,HEL,120 µM
CC(Sc1ncnc2c1cnn2CCCCO)C(N)=O,KOS,E6SM,>400 µg/mL
Cc1cn(C2SC[C@H](CO)[C@H]2CO)c(=O)[nH]c1=O,,VERO,>100 µg/mL
Nc1nc2c(ncn2COC(CO)CO)c(=O)[nH]1,,VERO,<0.003 µg/mL
Nc1nc(=O)n([C@@H]2S[C@H](CO)[C@@H](O)[C@@H]2F)cc1I,VR,,0.037 µg/mL
Nc1nc2c(ncn2CC=C(CO)CO)c(=O)[nH]1,,CCL18,>100 µg/mL
O=c1[nH]c(=O)n([C@H]2C[C@H](O)[C@@H](CO)O2)cc1CCCl,,VERO,<0.01 µg/mL
O=c1c2ncn(COCCO)c2[nH]c2ncc(C(c3ccccc3)(c3ccccc3)c3ccccc3)n12,F,,>16 µg/mL
Cc1cn([C@@H]2O[C@H](CO)[C@@H](O)[C@@H]2F)c(=O)[nH]c1=O,,HEP-2,<0.3 µg/mL
C=CCc1ncn2c(=O)[nH]c(NC(C)=O)nc12,KOS,PRK,>200 µg/mL
COc1cc2c(cc1OC)[C@@H]1C(N)CSCON1CC2,VMW1837 (TK-/TK+),E6SM,0.02 µg/mL
O=c1[nH]c(=O)n([C@H]2C[C@H](O)[C@@H](CO)O2)cc1/C=C/Br,KOS,PRK,0.015 µg/mL
NC1CCCON2CCc3c([nH]c4ccccc34)[C@H]12,B2006 (TK-),PRK,2 µg/mL
C=CCc1nc(C)n2c(=O)[nH]cnc12,KOS,PRK,>100 µg/mL
CC=NC(=N)c1nc(-c2ccccc2)n(Cc2ccccc2)n1,KOS,E6SM,>4 µg/mL
NC1CSCCN2CCc3c([nH]c4ccccc34)[C@H]12,B2006 (TK-),E6SM,0.04 µg/mL
Cc1cn(C2C[C@@H](CO)[C@@H](CO)S2)c(=O)[nH]c1=O,,VERO,>100 µg/mL
O=c1[nH]c(=O)n([C@H]2C[C@H](O)[C@@H](CO)O2)cc1F,,Human skin fibroblasts,0.4 µM
Nc1ccn([C@@H]2O[C@H](CO)[C@@H](O)[C@@H]2O)c(=O)n1,KOS,Primary rabbit kidney cells,0.04 µg/mL
CC=NC(=N)c1nc(-c2cccc(OC)c2)n(C/C=C/c2ccccc2)n1,KOS,E6SM,>10 µg/mL
CCCc1cn([C@H]2C[C@H](O)[C@@H](CO)O2)c(=O)[nH]c1=O,KOS,Primary rabbit kidney cells,1 µg/mL
COc1ccc(-c2[nH]c3nc4c(ncn4COCCO)c(=O)n3c2-c2ccc(C(c3ccccc3)c3ccccc3)cc2)cc1,McIntyre,,>16 µg/mL
N#Cc1cn([C@H]2C[C@H](O)[C@@H](CO)O2)c(=O)[nH]c1=O,,Primary rabbit kidney cells,160 µM
Cc1cn(C2CC(O[N+](=O)[O-])C(CO)O2)c(=O)[nH]c1=O,KOS ACV-R (TK-),E6SM,>400 µg/mL
O=c1[nH]c(=O)n([C@H]2CC[C@@H](CO)O2)cc1/C=C/Br,B2006 (TK-),PRK,100 µg/mL
CC=NC(=N)c1nc(-c2ccccc2)n(COCCO)n1,KOS,E6SM,>40 µg/mL
CCc1cc([C@H]2C[C@H](O)[C@@H](CO)O2)c(F)cc1F,KOS ACV-R (TK-),E6SM,>400 µg/mL
Cc1cn(C2OC[C@H](CO)[C@H]2CO)c(=O)[nH]c1=O,,VERO,>100 µg/mL
O=c1[nH]c(=O)n([C@@H]2S[C@H](CO)[C@@H](O)[C@@H]2F)cc1CCO,VR,,27 µg/mL
O=c1c2ncn(COC(CO)CO)c2[nH]c2nccn12,F,,0.004 µg/mL
C=CCc1nc(C)n2c(=O)[nH]c(NC(C)=O)nc12,KOS,PRK,>200 µg/mL
O=C(C1CCCCC1)N(O)c1ccc(Cl)cc1,KOS,E6SM,>80 µg/mL
O=c1c2ncn(COCCO)c2nc2[nH]c(-c3ccccc3)c(-c3ccc(C(c4ccccc4)c4ccccc4)cc3)n12,F,,>16 µg/mL
O=c1[nH]c(=O)n([C@@H]2O[C@H](CO)[C@@H](O)[C@@H]2O)cc1/C=C/Br,KOS,HSF,0.02 µg/mL
Nc1nc2c(ncn2COCCO)c(=O)[nH]1,K1,VERO,0.41 µM
O=c1c2ncn(COCCO)c2nc2[nH]c(-c3ccc(C(F)(F)F)cc3)cn12,TK-,HEL,>16 µg/mL
Nc1ncnc2c1ncn2C/C=C(/CO)c1ccccc1,,CCL18,>100 µg/mL
Nc1nc(F)nc2c1ncn2[C@H]1S[C@H](CO)[C@@H](O)[C@@H]1F,VR,,>27 µg/mL
C#C[C@H](O)C1=C[C@@H](n2cnc3c(N)ncnc32)[C@H](O)[C@@H]1O,KOS,E6SM,>100 µg/mL
Nc1nc2nn(CCOCP(=O)(O)O)nc2c(=O)[nH]1,B2006 (TK-),E6SM,>400 µg/mL
O=c1[nH]c(=O)n(C2CC(O[N+](=O)[O-])C(CO)O2)cc1F,KOS ACV-R (TK-),E6SM,>400 µg/mL
Nc1nc(N)c2ncn([C@@H]3C[C@H](CO)C4CC43)c2n1,,VERO,1–10 µg/mL
Nc1nc2c(ncn2C/C=C(/CO)c2ccccc2)c(=O)[nH]1,,CCL18,>100 µg/mL
CCC(Sc1ncnc2c1cnn2CCCCO)C(N)=O,KOS,E6SM,>400 µg/mL
Nc1nc2c(ncn2[C@@H]2C=C[C@H](CO)[C@@H](O)C2)c(=O)[nH]1,KOS TK- acyclovir-resistant,E6SM,0.38 µg/mL
Nc1ncnc2c1ncn2N1C[C@H](CO)[C@H]1CO,,VERO,33.2 µg/mL
Nc1nc(=O)n([C@@H]2O[C@H](CO)[C@@H](O)[C@@H]2F)cc1I,KOS,HEP-2,0.1 µg/mL
Nc1ncnc2c1ncn2OCCOCP(=O)(O)O,SC16,MRC-5,>350 µg/mL
Nc1nc2c(ncn2COCCO)c(=O)[nH]1,KOS,HeLa,1 µg/mL
Nc1ccn([C@@H]2C=C(CO)[C@@H](O)[C@H]2O)c(=O)n1,KOS,PRK,>400 µg/mL
OC[C@H]1O[C@@H](c2cc(/C=C/Br)c(F)cc2F)C[C@@H]1O,KOS,E6SM,>400 µg/mL
O=c1[nH]c(=O)n([C@H]2C[C@H](O)[C@@H](CO)O2)cc1I,,VERO,<0.1 µg/mL
Nc1ncnc2c1ncn2[C@H]1S[C@H](CO)[C@@H](O)[C@@H]1F,VR,,>27 µg/mL
CCc1cn([C@H]2C[C@H](O)[C@@H](CO)O2)c(=O)[nH]c1=O,KOS,HSF,2.7 µg/mL
Nc1ncnc2c1ncn2[C@@H]1O[C@H](CO)[C@@H](O)[C@@H]1O,KOS,HeLa,40 µg/mL
NC(=O)CSc1ncnc2c1cnn2COCCO,VWM1837 (TK-),E6SM,>400 µg/mL
C=C(N=CC)c1nc(-c2cccc(C)c2)n([C@@H]2O[C@H](CO)[C@@H](O)[C@H]2O)n1,KOS,E6SM,>200 µg/mL

7 of the rows above, restated:

smiles | strain or isolate | cells | value
Nc1nc2c(ncn2C/C=C(/CO)c2ccccc2)c(=O)[nH]1 |  | CCL18 | >100 µg/mL
NC1=NC2C(C=CN2CC(CO)CCO)C(=O)N1 | KOS | VERO | 5.3 µg/mL
NC1CSCCN2CCc3c([nH]c4ccccc34)[C@H]12 | B2006 (TK-) | E6SM | 0.04 µg/mL
COc1ccc(-c2[nH]c3nc4c(ncn4COCCO)c(=O)n3c2-c2ccc(C(c3ccccc3)c3ccccc3)cc2)cc1 | McIntyre |  | >16 µg/mL
N#Cc1cn([C@H]2C[C@H](O)[C@@H](CO)O2)c(=O)[nH]c1=O |  | Primary rabbit kidney cells | 160 µM
CCc1cn([C@H]2C[C@H](O)[C@@H](COP(=O)(O)O)O2)c(=O)[nH]c1=O | B2006 (TK-) | PRK | >820 µg/mL
Nc1nc(=O)n(C2CC(O)C(CO)O2)cc1CCCl | KOS | PRK | 0.6 µg/mL